Results of unrelated studies side by side (data: NIAID ChemDB).

Common to all: growth or infection tests

ECn: concentration that inhibits the pathogen or its effect by n%. Percent inhibition refers to the dose given; in toxicity tests it is the harm to the cells. Conditions beyond the fields shown may differ between rows. An empty or dashed field is not shown. MIC50, MIC90 and the like: level of inhibition, or share of isolates inhibited.

structure | strain or isolate | endpoint | tested at | agent | setting | read by | value
CC(C)NCCNC(C)C | ATCC 607 | inhibition | 60 µg/mL | Mycobacterium smegmatis | - | - | 100%
CCCCCCCCCCCCCCO/N=C1\[C@H](C)CC(C)(O)[C@H](O[C@@H]2O[C@H](C)C[C@H](N(C)C)[C@H]2O)[C@@H](C)[C@H](OC2C[C@@](C)(OC)[C@@H](O)[C@H](C)O2)[C@@H](C)C(=O)O[C@H](CC)[C@@](C)(O)[C@H](O)[C@H]1C | 20039 (clarithromycin-susceptible) | MIC | - | Mycobacterium avium complex | - | - | 50 µg/mL
CO[C@@]1(NC(=O)Cc2ccccc2)C(=O)N2C(C(=O)[O-])=C(CSc3nnc(C)s3)CSC21 | 1047 | MIC | - | Mycobacterium fortuitum | - | - | 100 µg/mL
CC[C@H]1OC(=O)[C@H](C)[C@@H](O[C@H]2C[C@@](C)(OC)[C@@H](OC(C)=O)[C@H](C)O2)[C@H](C)[C@@H](O[C@@H]2O[C@H](C)C[C@H](N(C)C)[C@H]2OC(=O)NNCc2cccc([N+](=O)[O-])c2)C(C)(O)C[C@@H](C)/C(=N\OCCCC2CCCCC2)[C@H](C)[C@@H](O)[C@]1(C)O | 20039 (clarithromycin-susceptible) | MIC | - | Mycobacterium avium complex | - | - | 0.78 µg/mL
Cc1cn([C@H]2C=C[C@@H](CO)O2)c(=O)[nH]c1=O | ATCC 25291 | inhibition | 50 µg/mL | Mycobacterium avium | - | - | 25%
CC[C@H]1OC(=O)[C@H](C)[C@@H](OC2C[C@@](C)(OC)[C@@H](O)[C@H](C)O2)[C@H](C)[C@@H](O[C@@H]2O[C@H](C)C[C@H](N(C)C)[C@H]2O)C(C)(O)C[C@@H](C)/C(=N\OCCCCc2ccccc2)[C@H](C)[C@@H](O)[C@]1(C)O | 20039 (clarithromycin-susceptible) | MIC | - | Mycobacterium avium complex | - | - | 1.56 µg/mL
Fc1cc(Nc2nnc(-c3ccncc3)o2)ccc1Br | My 6509/96 | MIC100 | - | Mycobacterium kansasii | 21 d | broth dilution | >125 µM
O=c1[nH]c(=O)n([C@H]2C[C@H](O)[C@@H](CO)O2)cc1I | ATCC 25291 | inhibition | 50 µg/mL | Mycobacterium avium | - | - | 0%
CC[C@H]1OC(=O)[C@H](C)[C@@H](OC2C[C@@](C)(OC)[C@@H](O)[C@H](C)O2)[C@H](C)[C@@H](O[C@@H]2O[C@H](C)C[C@H](N(C)C)[C@H]2O)C(C)(O)C[C@@H](C)/C(=N\OCC2CCCCC2)[C@H](C)[C@@H](O)[C@]1(C)O | 20039 (clarithromycin-susceptible) | MIC | - | Mycobacterium avium complex | - | - | 1.56 µg/mL
FC(F)(F)Oc1ccc(CNc2ncnc3ccccc23)cc1 | - | MIC50 | - | Mycobacterium bovis BCG | - | luminescence | >20 µM
C[C@@H]1CN(c2c(F)c(N)c3c(=O)c(C(=O)O)cn(C4CC4)c3c2F)C[C@H](C)N1 | N-976 (HIV+) | MIC | - | Mycobacterium avium complex | - | - | 0.5 µg/mL
CC[C@H]1OC(=O)[C@H](C)[C@@H](O[C@H]2C[C@@](C)(OC)[C@@H](OC(C)=O)[C@H](C)O2)[C@H](C)[C@@H](O[C@@H]2O[C@H](C)C[C@H](N(C)C)[C@H]2OC(=O)NNCCCCc2ccccc2)C(C)(O)C[C@@H](C)/C(=N\OCCCC2CCCCC2)[C@H](C)[C@@H](O)[C@]1(C)O | 20066 (clarithromycin-susceptible) | MIC | - | Mycobacterium avium intracellulare | - | - | 1.56 µg/mL
CCCCCC(C)NCCNC(C)CCCCC | ATCC 607 | inhibition | 30 µg/mL | Mycobacterium smegmatis | - | - | 100%
FC(F)(F)c1ccc(Oc2ccc(Nc3ncnc4ccccc34)cc2)cn1 | - | MIC50 | - | Mycobacterium bovis BCG | - | luminescence | >50 µM
CC(C)N=C(N)/N=C(\N)NOCCCOc1cc(Cl)c(Cl)cc1Cl | 516 | MIC | - | Mycobacterium avium complex | - | - | 32 µg/mL
FC(F)(F)c1cccc(CCNc2ncnc3ccsc23)c1 | - | MIC50 | - | Mycobacterium bovis BCG | - | luminescence | >50 µM
CCCCCN(CCCCC)CCN(CCCCC)CCCCC | ATCC 607 | inhibition | 8 µg/mL | Mycobacterium smegmatis | - | - | 100%
CC1COc2c(N3CCN(C)CC3)c(F)cc3c(=O)c(C(=O)O)cn1c23 | 20 strains | MIC50 | - | Mycoplasma hominis | - | - | 0.2 µg/mL
Fc1ccc(N2CCN(c3ccc(Nc4ncnc5cc(F)ccc45)cc3)CC2)cc1 | - | MIC50 | - | Mycobacterium bovis BCG | - | luminescence | >10 µM
NNC(=O)c1ccncc1 | N-962 (HIV+) | MIC | - | Mycobacterium avium complex | - | - | 64 µg/mL
CC[C@H]1OC(=O)[C@H](C)[C@@H](OC(=O)Cc2cccnc2)[C@H](C)[C@@H](O[C@@H]2O[C@H](C)C[C@H](N(C)C)[C@H]2O)C(C)(O)C[C@@H](C)/C(=N\OCCCOc2ccccc2)[C@H](C)[C@@H](O)[C@]1(C)O | 20039 (clarithromycin-susceptible) | MIC | - | Mycobacterium avium complex | - | - | 3.13 µg/mL
Fc1ccc(Oc2ccc(CNc3ncnc4ccccc34)cc2)cc1 | - | MIC50 | - | Mycobacterium bovis BCG | - | luminescence | >20 µM
CC[C@H]1OC(=O)[C@H](C)[C@@H](OC2C[C@@](C)(OC)[C@@H](OC(C)=O)[C@H](C)O2)[C@H](C)[C@@H](O[C@@H]2O[C@H](C)C[C@H](N(C)C)[C@H]2O)C(C)(O)C[C@@H](C)/C(=N\OCCCOc2ccccc2)[C@H](C)[C@@H](O)[C@]1(C)O | 20096 (clarithromycin-resistant) | MIC | - | Mycobacterium avium complex | - | - | 0.78 µg/mL
O=c1[nH]c(=O)n([C@@H]2O[C@H](CO)[C@@H](O)[C@H]2O)cc1F | ATCC 25291 | inhibition | 50 µg/mL | Mycobacterium avium | - | - | 0%
Cc1cn2c(C(=O)NCc3ccc(N4CCN(c5ccc(C(F)(F)F)cn5)CC4)c(F)c3)c(C)nc2s1 | ATCC 13950 | MIC | - | Mycobacterium intracellulare | - | resazurin | 0.125 µg/mL
O=C(O)c1nc(NCCc2ccc(OC(F)(F)F)cc2)c2ccc(F)cc2n1 | - | MIC50 | - | Mycobacterium bovis BCG | - | luminescence | >20 µM
CO[C@@]1(NC(=O)Cn2cnnn2)C(=O)N2C(C(=O)O)=C(CSc3nnc(C)s3)CSC21 | 914-8 | MIC | - | Mycobacterium fortuitum | - | - | 25 µg/mL
FC(F)(F)c1ccc(Oc2ccc(Nc3ncnc4ccsc34)cc2)cc1 | - | MIC50 | - | Mycobacterium bovis BCG | - | luminescence | >50 µM
CC[C@H]1OC(=O)[C@H](C)[C@@H](O[C@H]2C[C@@](C)(OC)[C@@H](OC(C)=O)[C@H](C)O2)[C@H](C)[C@@H](O[C@@H]2O[C@H](C)C[C@H](N(C)C)[C@H]2OC(=O)NNc2ccccc2)C(C)(O)C[C@@H](C)/C(=N\OCCCC2CCCCC2)[C@H](C)[C@@H](O)[C@]1(C)O | 20096 (clarithromycin-resistant) | MIC | - | Mycobacterium avium complex | - | - | 0.78 µg/mL
O=c1[nH]c(=O)n([C@H]2C[C@H](F)[C@@H](CO)O2)cc1Br | ATCC 25291 | inhibition | 50 µg/mL | Mycobacterium avium | - | - | 0%
CO[C@H]1/C=C/O[C@@]2(C)Oc3c(C)c(O)c4c(O)c(c5c(c4c3C2=O)NC2(CCN(CC(C)C)CC2)N=5)=NC(=O)/C(C)=C\C=C\[C@H](C)[C@H](O)[C@@H](C)[C@@H](O)[C@@H](C)[C@H](OC(C)=O)[C@@H]1C | N-251 (HIV-) | MIC | - | Mycobacterium avium complex | - | - | 0.8 µg/mL
FC(F)(F)c1ccc(N2CCC3(CCN(c4ccc(Nc5ncnc6ccccc56)cc4)CC3)CC2)cc1 | - | MIC50 | - | Mycobacterium bovis BCG | - | luminescence | >50 µM
CO[C@@]1(NC(=O)Cc2ccccc2)C(=O)N2C(C(=O)O)=C(COC(C)=O)CSC21 | 1047 | MIC | - | Mycobacterium fortuitum | - | - | >100 µg/mL
CCCCCCCNC(=O)NNC(=O)c1ccncc1 | My 235/80 | MIC100 | - | Mycobacterium kansasii | 14 d | broth dilution | 125 µM
Cc1cn2c(C(=O)NCc3ccc(N4CCC(c5ccc(OC(F)(F)F)cc5)CC4)cc3)c(C)nc2s1 | - | MIC | - | Mycobacterium intracellulare | - | resazurin | <2 µM
CCCCCc1ccc(NC(=O)NNC(=O)c2ccncc2)cc1 | My 6509/96 | MIC100 | - | Mycobacterium kansasii | 21 d | broth dilution | 125 µM
Fc1ccc2c(Nc3ccc(Oc4ccc(OC(F)(F)F)cc4)cc3)ncnc2c1 | - | MIC50 | - | Mycobacterium bovis BCG | - | luminescence | >20 µM
CO[C@H]1/C=C/O[C@@]2(C)Oc3c(C)c(O)c4c(O)c(c(/C=N/N5CCN(C6CCCC6)CC5)c(O)c4c3C2=O)NC(=O)/C(C)=C\C=C\[C@H](C)[C@H](O)[C@@H](C)[C@@H](O)[C@@H](C)[C@H](OC(C)=O)[C@@H]1C | 420 | MIC | - | Mycobacterium avium intracellulare | - | - | 2 µg/mL
COc1ccc2c(Nc3ccc(Oc4ccc(OC(F)(F)F)cc4)cc3)ncnc2c1 | - | MIC50 | - | Mycobacterium bovis BCG | - | luminescence | >20 µM
CO[C@@]1(NC(=O)CCCC(N)C(=O)O)C(=O)N2C(C(=O)O)=C(COC(N)=O)CSC21 | 1048 | MIC | - | Mycobacterium fortuitum | - | - | >100 µg/mL
Fc1ccc2c(Nc3ccc(N4CCN(c5ccc(C(F)(F)F)cc5)CC4)c(F)c3)ncnc2c1 | - | MIC50 | - | Mycobacterium bovis BCG | - | luminescence | >50 µM
CCC(CC)NCCNC(CC)CC | ATCC 607 | EC50 | - | Mycobacterium smegmatis | - | - | >250 µg/mL
O=S(=O)(c1ccc(OC(F)(F)F)cc1)C1CCN(c2ccc(Nc3ncnc4ccccc34)cc2)CC1 | - | MIC50 | - | Mycobacterium bovis BCG | - | luminescence | >50 µM
CCc1nc2ccc(Cl)cn2c1C(=O)NCc1ccc(N2CCSCC2)c(F)c1 | ATCC 13950 | MIC | - | Mycobacterium intracellulare | - | resazurin | 0.0156 µg/mL
COc1ccc2c(Nc3ccc(Oc4ccc(C(F)(F)F)cc4)cc3)ncnc2c1 | - | MIC50 | - | Mycobacterium bovis BCG | - | luminescence | >20 µM
CCCCCCCCc1ccc(NC(=O)NNC(=O)c2ccncc2)cc1 | My 235/80 | MIC100 | - | Mycobacterium kansasii | 21 d | broth dilution | >500 µM
O=c1[nH]c(=O)n([C@@H]2O[C@H](CO)[C@@H](O)[C@H]2F)cc1/C=C/I | ATCC 25291 | inhibition | 50 µg/mL | Mycobacterium avium | - | - | 0%
C[C@@H](O)[C@H]1C(=O)N2C(C(=O)O)=C(SCCN=CN)C[C@H]12 | 914-8 | MIC | - | Mycobacterium fortuitum | - | - | 1.56 µg/mL
Cc1ccc2nc(C)c(C(=O)NCc3ccc(C(F)(F)F)cc3)n2c1 | ATCC 13950 | MIC | - | Mycobacterium intracellulare | - | resazurin | <0.0078 µg/mL
O=C(NNC(=O)c1ccncc1)Nc1cc(Cl)cc(Cl)c1 | My 235/80 | MIC100 | - | Mycobacterium kansasii | 14 d | broth dilution | 125 µM
FC(F)(F)Oc1ccc(C2CCN(c3ccc(CNc4ncnc5sccc45)cc3)CC2)cc1 | - | MIC50 | - | Mycobacterium bovis BCG | - | luminescence | >20 µM
COc1ccc(Nc2nnc(-c3ccncc3)o2)cc1 | My 235/80 | MIC100 | - | Mycobacterium kansasii | 7 d | broth dilution | >125 µM
CCCCCCCCCCCCC(=O)O[C@H]1[C@H](C)[C@@H](O[C@@H]2O[C@H](C)C[C@H](N(C)C)[C@H]2O)C(C)(O)C[C@@H](C)/C(=N\OCCCOc2ccccc2)[C@H](C)[C@@H](O)[C@](C)(O)[C@@H](CC)OC(=O)[C@@H]1C | 20096 (clarithromycin-resistant) | MIC | - | Mycobacterium avium complex | - | - | >50 µg/mL
FC(F)(F)c1ccc(Oc2ccc(Nc3nc(C4CC4)nc4ccccc34)cc2)cc1 | - | MIC50 | - | Mycobacterium bovis BCG | - | luminescence | >20 µM
CO[C@H]1/C=C/O[C@@]2(C)Oc3c(C)c(O)c4c(=O)c(c5oc6cc(N7CCN(CC(C)C)CC7)cc(=O)c6nc5c4c3=C2O)NC(=O)/C(C)=C\C=C\[C@H](C)[C@H](O)[C@@H](C)[C@@H](O)[C@@H](C)[C@H](OC(C)=O)[C@@H]1C | N-752 (HIV-) | MIC | - | Mycobacterium avium intracellulare | - | - | 0.016 µg/mL

Repeating the final 4 entries:

{"structure": "COc1ccc(Nc2nnc(-c3ccncc3)o2)cc1", "strain or isolate": "My 235/80", "endpoint": "MIC100", "agent": "Mycobacterium kansasii", "setting": "7 d", "read by": "broth dilution", "value": ">125 µM"}
{"structure": "CCCCCCCCCCCCC(=O)O[C@H]1[C@H](C)[C@@H](O[C@@H]2O[C@H](C)C[C@H](N(C)C)[C@H]2O)C(C)(O)C[C@@H](C)/C(=N\\OCCCOc2ccccc2)[C@H](C)[C@@H](O)[C@](C)(O)[C@@H](CC)OC(=O)[C@@H]1C", "strain or isolate": "20096 (clarithromycin-resistant)", "endpoint": "MIC", "agent": "Mycobacterium avium complex", "value": ">50 µg/mL"}
{"structure": "FC(F)(F)c1ccc(Oc2ccc(Nc3nc(C4CC4)nc4ccccc34)cc2)cc1", "endpoint": "MIC50", "agent": "Mycobacterium bovis BCG", "read by": "luminescence", "value": ">20 µM"}
{"structure": "CO[C@H]1/C=C/O[C@@]2(C)Oc3c(C)c(O)c4c(=O)c(c5oc6cc(N7CCN(CC(C)C)CC7)cc(=O)c6nc5c4c3=C2O)NC(=O)/C(C)=C\\C=C\\[C@H](C)[C@H](O)[C@@H](C)[C@@H](O)[C@@H](C)[C@H](OC(C)=O)[C@@H]1C", "strain or isolate": "N-752 (HIV-)", "endpoint": "MIC", "agent": "Mycobacterium avium intracellulare", "value": "0.016 µg/mL"}